Target: CodY (6His-CodY) (UniProt A0A0H3MTH0)
Assay: EMSA
Conditions: EMSA: 1 ug PCR product with 0-2200 ng CodY in binding buffer (Beyotime; composition, pH and salt not given), 30 min at 37 C, native PAGE, ethidium bromide …; recombinant protein; residues 1-262; probe letters rebuilt from the primers and the genome

## CCGATTAAGGTTGTGTTGATCAATAACCACTCTCTTGGAATGGTTCGTCAATGGCAGGAATCCTTCTATGAAAAGCGTCGTAGCCAATCTGTCTTTGACGATGAACCGAATTTCCAATTGTTGGCAGAGGCCTACGGAATTAGTCATTATAGTTTTGACAATCCAGCGACTCTAAGTGAAGATATGAAAGTTATCTTAGAAGATAAACCAATGCTCATAGAGGTTCATATTTCTAATCGTGAACATGTTCAACCGATGGTGCCAGCAGGTAAGAGCAATGCAGAAATGTTGGGGGTGAAGTTCA (double strand) [ilvH promoter]
  binding result: binds

## TTTTGGTCTTGGGATTACTGGCTTTCGGTCAGTATGATTTTCCAACAGGGATTGGCACTTTAATCGTCGGTGGTTTGATTGTCTCACTCGGAGTTTCTCTTGGTGGTCCAACAGGATATGCCCTAAACCCTGCGCGTGATCTTGGTCCTCGTATCATGCATGCCATCCTTCCATTGAAGCACAAGGGAGATTCGGATTGGGGCTATGCATGGGTACCAGTAGTTGGTCCAATCATCGGAGGCTTGCTTGCGGCTCTCCTTTATGGTCTCATTTTTTAAAAAATATCCTTCTCTAATCAGCAATGGTTAGGGAAGTTTTT (double strand) [glo promoter]
  binding result: binds

— PMC4756307
